The record followed here is PubChem BioAssay AID559 (PCMD, 2006).

Sequences of proteins named here, by UniProt entry; tags and fusion partners are left off.
UniProt P0A8V2, whole entry: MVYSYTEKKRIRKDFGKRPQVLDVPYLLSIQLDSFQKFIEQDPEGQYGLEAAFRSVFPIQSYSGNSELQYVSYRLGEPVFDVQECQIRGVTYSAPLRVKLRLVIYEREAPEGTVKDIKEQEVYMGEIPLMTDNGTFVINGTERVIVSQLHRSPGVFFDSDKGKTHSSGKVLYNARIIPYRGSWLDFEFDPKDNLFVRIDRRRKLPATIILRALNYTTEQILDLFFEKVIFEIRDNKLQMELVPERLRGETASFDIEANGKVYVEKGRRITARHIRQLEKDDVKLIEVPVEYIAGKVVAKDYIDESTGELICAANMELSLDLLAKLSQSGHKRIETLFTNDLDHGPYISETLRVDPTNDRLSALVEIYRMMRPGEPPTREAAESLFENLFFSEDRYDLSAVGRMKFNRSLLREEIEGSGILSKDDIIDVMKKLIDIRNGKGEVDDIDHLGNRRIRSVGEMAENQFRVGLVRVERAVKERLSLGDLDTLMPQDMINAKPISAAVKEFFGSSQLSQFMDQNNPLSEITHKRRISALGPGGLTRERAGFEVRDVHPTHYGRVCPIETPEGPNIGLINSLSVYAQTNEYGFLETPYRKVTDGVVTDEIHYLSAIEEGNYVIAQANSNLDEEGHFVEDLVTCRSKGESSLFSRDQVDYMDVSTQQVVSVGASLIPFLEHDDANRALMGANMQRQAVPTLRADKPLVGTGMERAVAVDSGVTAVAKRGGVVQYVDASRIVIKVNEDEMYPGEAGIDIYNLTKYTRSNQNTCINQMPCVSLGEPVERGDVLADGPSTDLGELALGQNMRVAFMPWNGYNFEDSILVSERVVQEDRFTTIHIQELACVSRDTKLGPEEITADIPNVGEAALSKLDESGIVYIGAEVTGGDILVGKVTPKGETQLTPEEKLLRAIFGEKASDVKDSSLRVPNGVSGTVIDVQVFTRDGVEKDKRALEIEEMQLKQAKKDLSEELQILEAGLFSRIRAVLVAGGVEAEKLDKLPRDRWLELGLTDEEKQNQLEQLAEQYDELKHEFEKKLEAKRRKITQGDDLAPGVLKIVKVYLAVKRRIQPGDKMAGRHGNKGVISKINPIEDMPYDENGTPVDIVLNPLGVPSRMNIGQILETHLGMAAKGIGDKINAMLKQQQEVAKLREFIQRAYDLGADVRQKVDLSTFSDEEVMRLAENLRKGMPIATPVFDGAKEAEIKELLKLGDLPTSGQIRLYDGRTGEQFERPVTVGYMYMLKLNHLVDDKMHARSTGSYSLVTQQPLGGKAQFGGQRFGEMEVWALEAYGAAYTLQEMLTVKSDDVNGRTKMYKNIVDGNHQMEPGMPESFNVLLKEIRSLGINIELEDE

Molecules are shown by their SMILES. The entries are a selection whose mix differs from that of the whole data set. The source made the active and inactive calls. Rule as the data show it: active = inhibition above about 20%; inactive = the rest.

The target of this experiment is DNA-directed RNA polymerase subunit beta (Escherichia coli (strain K12)) (UniProt P0A8V2). The experiment can be described thus: bacterial RNA polymerase transcription inhibition – biochemical (AID 559).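 Also: 0% = enzyme without compound and 100% = no enzyme blank.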 The following applies: E. coli RNA polymerase, fluorescence transcription assay; active compounds read high;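 tested at 10 µM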.
Broadly, the inhibition is the percentage by which the read-out fell short of the control. As to `N#CC1(Nc2ccccc2)CCN(CCc2ccccc2)CC1`, the inhibition is inactive: 0.59%. With `O=C(OC1CN2CCC1CC2)C1c2ccccc2Oc2ccccc21` (stereo unspecified) the figure was inactive: 6.4%; with `CCC(CO)(C(=O)OC1CN2CCC1CC2)c1ccccc1` (stereo unspecified), inactive: 8.57%; with `CCOc1ncccc1C(=O)NCC1(N2CCOCC2)CCCCC1`, inactive: 2.26%. With `Fc1ccccc1NC1CCN(Cc2ccccc2)CC1` the figure was inactive: 5.27%; with `N/C(=N\O)c1c(N)no[n+]1[O-]`, inactive: 7.18%.
